Assay results from patent US7544773B2 (priority 2003, dated 2009).

By UniProt entry, the sequences of proteins in these tests, tags left out. Where a name states a change or a piece, a line headed by the entry shows the natural chain unless it says otherwise.
UniProt P26948: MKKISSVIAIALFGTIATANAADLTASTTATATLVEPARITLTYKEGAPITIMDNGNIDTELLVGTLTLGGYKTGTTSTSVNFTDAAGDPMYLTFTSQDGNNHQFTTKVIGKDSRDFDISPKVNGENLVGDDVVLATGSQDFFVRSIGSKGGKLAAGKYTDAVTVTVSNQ

Molecular target: Caf1 (Yersinia pestis, UniProt P26948)
Conditions: peptide 10^−4 to 10^−8 M, E. coli DH5α/pFMA

Ala-Thr-Ala-Thr-Leu-Val
inhibition of expression of Caf1 on the surface of cells: clearly inhibits
